Drawing on PubChem BioAssay AID720580 (National Center for Advancing Translational Sciences (NCATS), 2013), this text covers activity change, negative = inhibition for 2 molecules.

Structures are written as SMILES. This is a selection; strong and weak results do not stand in their true shares. Results filed as inconclusive are left out. Active and inactive are the calls of the source. Calls come from the whole dose curve; tested in A549 cells.
% is set by controls: 0 for no effect and ±100 for the full control effect.

The assay can be described thus: qHTS for Stage-Specific Inhibitors of Vaccinia Orthopoxvirus: Venus Reporter Primary qHTS. Note: nearly all actives have a fitted effect of over 30% in size. The following applies: Vaccinia virus Venus reporter expression, fluorescence; at 36.5 µM (top of the series). (In qHTS, concentration-response curves come from the screen itself.)
Regarding `O=[As](O)(c1ccccc1)c1ccc(O)cc1`, the activity change, negative = inhibition is inactive: 1.04%.

As for `CN(C)C(=O)c1cc([N+](=O)[O-])cc2c1-c1c(cc([N+](=O)[O-])cc1[N+](=O)[O-])C2=O`, the activity change, negative = inhibition is inactive: 4.97%.
